Compound potency records, mixed from different reports. Data source: NIAID ChemDB in PubChem.

All rows: growth or infection tests

Rows are shuffled and stem from different studies. A number after MIC or MFC names an inhibition level or a share of isolates.

{"compound": "C#CCCCCCCCCCCCCC#CC(=O)O", "agent": "Mycobacterium smegmatis", "measure": "MIC99", "strain or isolate": "mc2155", "result": "76.3 µM"}
{"compound": "O=C(O)COC(Cn1nnnc1-c1ccccc1)c1ccc(Cl)cc1", "agent": "Mycobacterium luteus", "method": "broth dilution", "measure": "MIC", "strain or isolate": "ATCC 21881", "result": ">200 µg/mL"}
{"compound": "CC1(C)N=C(N)N=C(N)N1OCCCOc1cc(Cl)c(Cl)cc1Cl", "agent": "Mycobacterium avium complex", "measure": "MIC", "strain or isolate": "FAR", "result": "≤0.5 µg/mL"}
{"compound": "CCCCCCCCCCCCCC#CCC#CC(=O)O", "agent": "Mycobacterium smegmatis", "measure": "MIC99", "strain or isolate": "mc22389", "result": "172.3 µM"}
{"compound": "COC(=O)C1CC(=O)N(c2cccc(OC3=C(Cl)C(=O)c4ccccc4C3=O)c2)C1", "agent": "Mycobacterium luteum", "measure": "MIC", "strain or isolate": "B-917", "result": "62.5 µg/mL"}
{"compound": "CCC1CN(c2c(F)cc3c(=O)n(N)c(=O)n(C4CC4)c3c2OC)CCN1", "agent": "Mycobacterium smegmatis", "measure": "MIC99", "strain or isolate": "A91V mutant", "result": "5 µg/mL"}
{"compound": "C[C@@H]1CN(c2c(F)c(N)c3c(=O)c(C(=O)O)cn(C4CC4)c3c2F)C[C@H](C)N1", "agent": "Mycobacterium avium intracellulare", "measure": "MIC50", "result": "6.25 µg/mL"}
{"compound": "COc1c(NC(=O)c2ccc(NC(=O)c3c(F)cc(NC(=O)[C@H](Cc4cn[nH]n4)NC(=O)c4ccc(NC(=O)/C(C)=C/c5ccc(O)cc5)cc4)cc3F)c(OC)c2O)ccc(C(=O)O)c1O", "agent": "Mycobacterium luteus", "method": "resazurin", "measure": "MIC", "strain or isolate": "130.21", "result": "0.25 µg/mL"}
{"compound": "CCCCCCCCCCCCCCCC#CCC#CC(=O)O", "agent": "Mycobacterium smegmatis", "measure": "MIC99", "strain or isolate": "mc2155", "result": "78.6 µM"}
{"compound": "COc1c(NC(=O)c2ccc(NC(=O)c3ccc(NC(=O)[C@H](Cc4cn[nH]n4)NC(=O)c4ccc(NC(=O)/C(C)=C/c5ccc(O)cc5)cc4)cc3Br)c(OC)c2O)ccc(C(=O)O)c1O", "agent": "Mycobacterium luteus", "method": "resazurin", "measure": "MIC", "strain or isolate": "130.21", "result": "0.5 µg/mL"}
{"compound": "Cc1cn2c(C(=O)NCc3ccc(N4CCN(c5ccc(C(F)(F)F)cn5)CC4)c(F)c3)c(C)nc2s1", "agent": "Mycobacterium intracellulare", "method": "resazurin", "measure": "MIC", "strain or isolate": "ATCC 13950", "result": "0.125 µg/mL"}
{"compound": "O=C1C(Oc2cccc(N3CC(c4nnco4)CC3=O)c2)=C(Oc2cccc(N3CC(c4nnco4)CC3=O)c2)C(=O)c2ccccc21", "agent": "Mycobacterium luteum", "measure": "MIC", "strain or isolate": "B-917", "result": "125 µg/mL"}
{"compound": "Cc1ccn2c(C(=O)NCc3ccc(N4CCN(c5ccc(C(F)(F)F)cn5)CC4)c(F)c3)c(C)nc2c1", "agent": "Mycobacterium intracellulare", "method": "resazurin", "measure": "MIC", "strain or isolate": "ATCC 13950", "result": "0.03125 µg/mL"}
{"compound": "COc1ncccc1Nc1cc2nc3ccccc3n(-c3ccc(OC(F)(F)F)cc3)c-2cc1=NC1CCC(OC)CC1", "agent": "Mycobacterium scrofulaceum", "method": "fluorescence", "measure": "MIC90", "result": "1.49 µg/mL"}
{"compound": "O=C(COC(Cn1nnnc1Cc1ccccc1)c1ccc(Cl)cc1)NNC(=S)Nc1ccc(Cl)cc1", "agent": "Mycobacterium luteus", "method": "broth dilution", "measure": "MIC", "strain or isolate": "ATCC 21881", "result": ">200 µg/mL"}
{"compound": "Cc1ccn2c(C(=O)NCc3ccc(N4CCN(c5ccc(C(F)(F)F)cc5)CC4)c(F)c3)c(C)nc2c1", "agent": "Mycobacterium intracellulare", "method": "resazurin", "measure": "MIC", "result": "<2 µM"}
{"compound": "NNC(=O)COC(Cn1nnnc1-c1ccccc1)c1ccc(Cl)cc1", "agent": "Mycobacterium luteus", "method": "broth dilution", "measure": "MIC", "strain or isolate": "ATCC 21881", "result": ">200 µg/mL"}
{"compound": "Cc1ccc(NC(=O)c2ccc3cc(O)ccc3c2)cc1", "agent": "Mycobacterium avium paratuberculosis", "method": "broth dilution", "measure": "MIC", "strain or isolate": "Clinical isolate CIT03 (MAP)", "result": "27 µM"}
{"compound": "COc1c(N2CCC(N)C2)c(F)cc2c(=O)c(C(=O)O)cn(C3CC3)c12", "agent": "Mycobacterium smegmatis", "measure": "MIC99", "strain or isolate": "D95Y mutant", "result": "2 µg/mL"}
{"compound": "CCCCCCCCCCCCCCCC#CC(=O)OCC(O)CO", "agent": "Mycobacterium smegmatis", "measure": "MIC99", "strain or isolate": "mc22389", "result": "17.6 µM"}
{"compound": "Cc1cn2c(C(=O)NCc3ccc(N4CCC(c5ccc(OC(F)(F)F)cc5)CC4)cc3)c(C)nc2s1", "agent": "Mycobacterium intracellulare", "method": "resazurin", "measure": "MIC", "result": "<2 µM"}
{"compound": "CCCCCCCCCCCCCCCC#CC(=O)Oc1cnccc1C(=O)OCCC", "agent": "Mycobacterium smegmatis", "measure": "MIC99", "strain or isolate": "mc2155", "result": "92.8 µM"}
{"compound": "S=c1[nH]nc(COC(Cn2nnnc2-c2ccccc2)c2ccc(Cl)cc2)o1", "agent": "Mycobacterium luteus", "method": "broth dilution", "measure": "MIC", "strain or isolate": "ATCC 21881", "result": "50 µg/mL"}
{"compound": "CCCCCC(CC(=O)N1N=CCCC1C(=O)N[C@H]1COC(=O)C2C[C@@H](O)CNN2C(=O)[C@H](C)NC(=O)[C@@H](CC(C)C)NC1=O)C(=O)O", "agent": "Mycobacterium aurum", "measure": "MIC", "strain or isolate": "SB66", "result": "6.3 µg/mL"}
{"compound": "Cc1ccc2nc(C)c(C(=O)NCc3ccc(C(F)(F)F)cc3)n2c1", "agent": "Mycobacterium intracellulare", "method": "resazurin", "measure": "MIC", "strain or isolate": "ATCC 13950", "result": "<0.0078 µg/mL"}
{"compound": "Clc1ccc(/C=C/n2nnc(-c3ccccc3)n2)cc1", "agent": "Mycobacterium luteus", "method": "broth dilution", "measure": "MIC", "strain or isolate": "ATCC 21881", "result": ">200 µg/mL"}
{"compound": "COc1c(N2CC[C@H](N)C2)c(F)cc2c(=O)[nH]c(=O)n(C3CC3)c12", "agent": "Mycobacterium smegmatis", "measure": "MIC99", "strain or isolate": "WT", "result": "50 µg/mL"}
{"compound": "COc1c(NC(=O)c2ccc(NC(=O)c3ccc(NC(=O)[C@H](Cc4cn[nH]n4)NC(=O)c4ccc(NC(=O)/C(C)=C/c5ccc(O)cc5)cc4)cc3Cl)c(OC)c2O)ccc(C(=O)O)c1O", "agent": "Mycobacterium luteus", "method": "resazurin", "measure": "MIC", "strain or isolate": "130.21", "result": "0.25 µg/mL"}
{"compound": "CO[C@H]1/C=C/O[C@@]2(C)Oc3c(C)c(O)c4c(O)c(c(/C=N/N5CCN(C6CCCC6)CC5)c(O)c4c3C2=O)NC(=O)/C(C)=C\\C=C\\[C@H](C)[C@H](O)[C@@H](C)[C@@H](O)[C@@H](C)[C@H](OC(C)=O)[C@@H]1C", "agent": "Mycobacterium avium intracellulare", "measure": "MIC", "strain or isolate": "AMT", "result": "1 µg/mL"}
{"compound": "CCC1CN(c2c(F)cc3c(=O)[nH]c(=O)n(C4CC4)c3c2OC)CCN1", "agent": "Mycobacterium smegmatis", "measure": "MIC99", "strain or isolate": "WT", "result": "100 µg/mL"}

Repeating the final 4 entries:

{"compound": "COc1c(N2CC[C@H](N)C2)c(F)cc2c(=O)[nH]c(=O)n(C3CC3)c12", "agent": "Mycobacterium smegmatis", "measure": "MIC99", "strain or isolate": "WT", "result": "50 µg/mL"}
{"compound": "COc1c(NC(=O)c2ccc(NC(=O)c3ccc(NC(=O)[C@H](Cc4cn[nH]n4)NC(=O)c4ccc(NC(=O)/C(C)=C/c5ccc(O)cc5)cc4)cc3Cl)c(OC)c2O)ccc(C(=O)O)c1O", "agent": "Mycobacterium luteus", "method": "resazurin", "measure": "MIC", "strain or isolate": "130.21", "result": "0.25 µg/mL"}
{"compound": "CO[C@H]1/C=C/O[C@@]2(C)Oc3c(C)c(O)c4c(O)c(c(/C=N/N5CCN(C6CCCC6)CC5)c(O)c4c3C2=O)NC(=O)/C(C)=C\\C=C\\[C@H](C)[C@H](O)[C@@H](C)[C@@H](O)[C@@H](C)[C@H](OC(C)=O)[C@@H]1C", "agent": "Mycobacterium avium intracellulare", "measure": "MIC", "strain or isolate": "AMT", "result": "1 µg/mL"}
{"compound": "CCC1CN(c2c(F)cc3c(=O)[nH]c(=O)n(C4CC4)c3c2OC)CCN1", "agent": "Mycobacterium smegmatis", "measure": "MIC99", "strain or isolate": "WT", "result": "100 µg/mL"}